Anti-infective test results gathered from many reports (values: NIAID ChemDB through PubChem).

Shared fields: target-level tests; organism: HIV-1; protein: Reverse transcriptase; measure: IC50

Conditions beyond the fields shown may differ between rows. a–b is a range or a potency band. ICn: concentration for n% inhibition. Blank or dashed fields: not listed here.

SMILES	strain	changes	method	value
Cc1c(Cc2c(Cl)cccc2Cl)nc(Sc2ccc(F)cc2F)[nH]c1=O	-	RT-K103N	-	>400 µM
C[C@H](CNC(=S)Nc1ccc(Br)cn1)c1ccccc1	-	-	-	1.9 µM
CCC(C)Oc1nc(Cc2cccc(C)c2)cc(=O)[nH]1	IIIB	-	nucleotide incorporation	2 µM
C[C@H]1[C@H](C)CC[C@]2(C)CC[C@]3(C)C(=CC[C@@H]4[C@@]5(C)CC[C@H](O)C(C)(C)[C@@H]5CC[C@]43C)[C@H]12	-	-	nucleotide incorporation	3.3 µM
CCN1c2ncc(CCOc3ccc(/C(C)=C/C(=O)O)c4ccccc34)cc2C(=O)N(C)c2cccnc21	-	RT-Y188L	nucleotide incorporation / radiometric	>1 µM
CC(C)=CCN1Cc2cccc3[nH]c(=S)n(c23)C[C@@H]1C	RF	-	nucleotide incorporation	0.125 µM
Cc1csc(NC(=S)NC[C@@H](C)c2ccccc2)n1	-	-	-	>100 µM
O=C(CSc1nnnn1-c1cccc(Cl)c1Cl)Nc1ccccc1[N+](=O)[O-]	-	-	nucleotide incorporation / radiometric	<2 µM
CC(C)=CCC[C@](C)(O)C1CC[C@]2(C)C1CC[C@@H]1[C@@]3(C)CC[C@H](O)C(C)(C)[C@@H]3CC[C@]12C	-	-	nucleotide incorporation	>45 µM
Cc1c(Sc2ccccc2)n(COCCO)c(=O)[nH]c1=O	-	RT-T139I N348K	nucleotide incorporation	1 µM
CC(Sc1nnnn1-c1cccc2ccccc12)C(=O)Nc1ccccc1[N+](=O)[O-]	-	-	nucleotide incorporation / radiometric	<2 µM
CCN1c2ncc(CCOc3ccc4cc(C(=O)O)ccc4c3)cc2C(=O)N(C)c2cccnc21	WT	-	nucleotide incorporation / radiometric	<0.1 µM
CCC1(c2ccc(COc3cccc(Cl)c3)cc2)Oc2ccccc2-n2cccc2C1=O	-	RT-Y181I	nucleotide incorporation / radiometric	>10 µM
CCN1c2ncc(CCOc3cccc4c3CCCN4CC(=O)O)cc2C(=O)N(C)c2cccnc21	WT	-	nucleotide incorporation / radiometric	<0.1 µM
CC(C)=C(CC/C(C)=C/CCC1=C(C)CC[C@@]2(C)CCC(C)(C)C[C@@H]12)C(C)CCCO	-	-	nucleotide incorporation	>47 µM
Cc1c(Cc2c(Cl)cccc2Cl)nc(Sc2ccc(C#N)cc2)[nH]c1=O	-	RT-K103N	-	>400 µM
CC(=O)c1ccc(C)cc1NC(C(N)=O)c1c(Cl)cccc1Cl	IIIB	RT-P225H	RT activity	1.9 µM
COc1cc(C(=O)Oc2c(-c3ccc(Cl)c(Cl)c3)oc3ccccc3c2=O)cc(OC)c1O	-	-	-	>100 µM
COc1ccc2nc(NC(=S)N[C@H](C)c3ccccc3)sc2c1	-	-	-	>100 µM
C/C=C/CSc1cc(NC(=S)c2ccsc2C)ccc1Cl	-	RT-K103N	-	>100 µM
Cc1cc(C)c(-n2nnnc2SCC(=O)Nc2ccc(Cl)cc2[N+](=O)[O-])c(C)c1	-	-	nucleotide incorporation / radiometric	<2 µM
Cc1occc1C(=S)Nc1ccc(Cl)c(/C=N/OC(C)(C)C)c1	-	RT-Y188L	-	95 µM
Cc1cc(C)c(-n2nnnc2SCC(=O)Nc2cccnc2Cl)c(C)c1	-	-	nucleotide incorporation / radiometric	<2 µM
C=C(C)[C@@H]1CC[C@]2(C=O)CC[C@]3(C)[C@H](CC[C@@H]4[C@@]5(C)CC[C@H](O)C(C)(C)[C@@H]5CC[C@]43C)[C@@H]12	-	-	nucleotide incorporation	>45 µM
CC(=O)c1cccc(-n2nnnc2SCC(=O)Nc2ccccc2Cl)c1	-	-	nucleotide incorporation / radiometric	<2 µM
O=C(NCCc1ccc(O)c(O)c1)c1cc2cc(O)c(O)cc2[nH]1	-	-	RT activity / fluorescence	>100 µM
Cc1cccc2sc(NC(=S)N[C@H](C)c3ccccc3)nc12	-	-	-	8.7 µM
C[C@H]1[C@H](C)CC[C@]2(C)CC[C@]3(C)C(=CCC4[C@@]5(C)CCC(=O)C(C)(C)[C@@H]5CC[C@]43C)[C@H]12	-	-	nucleotide incorporation	3.3 µM
Cc1c(Sc2ccccc2)n(COCCO)c(=O)[nH]c1=O	-	-	nucleotide incorporation	56 µM
Cc1cc(C)c(-n2nnnc2SCC(=O)Nc2cc([N+](=O)[O-])ccc2Cl)c(C)c1	-	-	nucleotide incorporation / radiometric	<2 µM
CC1(C)[C@H](O)CC[C@]2(C)C3=C(C(=O)C[C@@H]12)[C@@]1(C)CC[C@@]2(C)CC[C@@](C)(CO)C[C@H]2[C@]1(C)CC3	-	-	nucleotide incorporation	33 µM
CCN1c2ncc(CCOc3ccc(S(N)(=O)=O)c4ccccc34)cc2C(=O)N(C)c2cccnc21	WT	-	nucleotide incorporation / radiometric	<0.1 µM
O=C(Oc1c(-c2ccc(Cl)cc2)oc2ccccc2c1=O)c1cc(OCc2ccccc2)c(OCc2ccccc2)c(OCc2ccccc2)c1	-	-	-	100 µM
Cc1c(Cc2c(F)cccc2F)nc(Sc2ccc(Cl)cc2)[nH]c1=O	-	Y181I	-	>400 µM
Cc1csc(NC(=S)N[C@@H](C)c2cccc3ccccc23)n1	-	-	-	>100 µM
CCc1c(Sc2ccccn2)n(COCc2ccccc2)c(=O)[nH]c1=O	-	RT-Y181C	-	>50 µM
O=C(NCCNC(=O)c1cc2cc(O)c(O)cc2[nH]1)c1cc2cc(O)c(O)cc2[nH]1	-	-	RT activity / fluorescence	37 µM
O=C(CSc1nnnn1-c1cccc2ccccc12)Nc1ccc(Cl)cc1[N+](=O)[O-]	-	-	nucleotide incorporation / radiometric	<2 µM
COc1ccc(Sc2nc(Cc3c(Cl)cccc3Cl)c(C)c(=O)[nH]2)cn1	-	Y181I	-	>400 µM
O=C(CSc1nnnn1-c1ccccc1-c1ccccc1)Nc1ccccc1[N+](=O)[O-]	-	-	nucleotide incorporation / radiometric	<2 µM
Cc1c(Cc2c(F)cccc2F)nc(Sc2ccccc2)[nH]c1=O	-	Y181I	-	>400 µM
COc1cc(/C=C/C(=O)Oc2c(-c3ccc(Cl)cc3)oc3ccccc3c2=O)ccc1OC(C)=O	-	-	-	>100 µM
CCN1c2ncc(CCOc3ccc(CCC(=O)O)c4ccccc34)cc2C(=O)N(C)c2ccc(C)nc21	WT	-	nucleotide incorporation / radiometric	<0.1 µM
CCOC(=O)Cc1csc(NC(=S)NC[C@@H](C)c2ccccc2)n1	-	-	-	>100 µM
Cc1cn([C@@H]2O[C@H](CO[Si](C)(C)C(C)(C)C)C3(OS(=O)(=O)C=C3N)[C@H]2O[Si](C)(C)C(C)(C)C)c(=O)n(C)c1=O	IIIB	RT-P225H	RT activity	2.2 µM
CCOC(=O)c1ccc(O)cc1	-	-	nucleotide incorporation	>50 µM
Cc1cc(C)cc(S(=O)(=O)c2c(C(=O)NNCCO)[nH]c3ccc(Cl)cc23)c1	-	RT-Y181I	nucleotide incorporation / radiometric	4.6 µM
COc1cc(C(=O)Oc2c(-c3ccc(Cl)cc3)oc3ccccc3c2=O)ccc1O	-	-	-	>100 µM
CCC1(c2ccc(CNc3cccc(F)c3)cc2)Oc2ccccc2-n2cccc2C1=O	-	RT-K103N	nucleotide incorporation / radiometric	2.3 µM
Cc1cc(C)cc(Cc2cc(=O)[nH]c(OC3CCCC3)n2)c1	IIIB	-	nucleotide incorporation	3 µM
CC(C)=CCC[C@H](C)C1CC[C@]2(C)C3=C(CC[C@@]12C)[C@@]1(C)CC[C@H](O)C(C)(C)[C@@H]1CC3	-	-	nucleotide incorporation	3.8 µM
CCOc1cccc(C2(CC)Oc3ccccc3-n3cccc3C2=O)c1	-	RT-Y188L	nucleotide incorporation / radiometric	0.76 µM
O=C(OCC(COC(=O)c1ccc(O)cc1)OC(=O)c1ccc(O)cc1)c1ccc(O)cc1	-	-	nucleotide incorporation	>50 µM
C[C@@H](CNC(=S)Nc1nccs1)c1ccccc1	-	-	-	10.02 µM
CCN1c2ncc(CCOc3ccc(CC(=O)O)c4ccccc34)cc2C(=O)N(C)c2ccc(F)nc21	-	RT-K103N Y181C	nucleotide incorporation / radiometric	0.1–1 µM
CC(C)=CCC[C@@H](C)C1CC[C@@]2(C)[C@@H]3CC=C4[C@@H](CC[C@H](O)C4(C)C)[C@]3(C)CC[C@]12C	-	-	nucleotide incorporation	28 µM
COc1ccc2c(c1)N(C(=O)OC(C)C)[C@@H](CSC)C(=S)N2	IIIB	-	RT activity	0.012 µM
CC(C)=CCOc1cc(NC(=S)c2ccoc2C)ccc1Cl	-	RT-V106A	-	3.2 µM
Cc1cc(C)cc(Cc2cc(=O)[nH]c(OC3CCCCC3)n2)c1	IIIB	-	nucleotide incorporation	1 µM
CCC(NC(=S)Nc1nc2ccccc2s1)c1ccccc1	-	-	-	>100 µM
CC[C@@]1(O)C(=O)OCc2c1cc1n(c2=O)Cc2cc3ccccc3nc2-1	-	-	-	>100 µM
CCN1c2ncc(CCOc3ccc(CC(N)=O)c4ccccc34)cc2C(=O)N(C)c2cccnc21	-	RT-Y188L	nucleotide incorporation / radiometric	>1 µM
Cc1cccc(Cc2nc(OC3CCCC3)[nH]c(=O)c2C)c1	IIIB	-	nucleotide incorporation	>10 µM
CCC1(c2ccc(COc3ccccc3Cl)cc2)Oc2ccccc2-n2cccc2C1=O	-	RT-V106A	nucleotide incorporation / radiometric	5 µM
Cc1cn([C@@H]2C[C@H](O)[C@@H](COP(=O)(O)O)O2)c(=O)[nH]c1=O	-	-	-	>100 µM

For reference, 8 entries again:

SMILES	strain	changes	method	value
CCN1c2ncc(CCOc3ccc(CC(N)=O)c4ccccc34)cc2C(=O)N(C)c2cccnc21	-	RT-Y188L	nucleotide incorporation / radiometric	>1 µM
O=C(NCCNC(=O)c1cc2cc(O)c(O)cc2[nH]1)c1cc2cc(O)c(O)cc2[nH]1	-	-	RT activity / fluorescence	37 µM
CCOC(=O)Cc1csc(NC(=S)NC[C@@H](C)c2ccccc2)n1	-	-	-	>100 µM
CCC1(c2ccc(CNc3cccc(F)c3)cc2)Oc2ccccc2-n2cccc2C1=O	-	RT-K103N	nucleotide incorporation / radiometric	2.3 µM
O=C(NCCc1ccc(O)c(O)c1)c1cc2cc(O)c(O)cc2[nH]1	-	-	RT activity / fluorescence	>100 µM
CC(Sc1nnnn1-c1cccc2ccccc12)C(=O)Nc1ccccc1[N+](=O)[O-]	-	-	nucleotide incorporation / radiometric	<2 µM
CC(C)=CCC[C@H](C)C1CC[C@]2(C)C3=C(CC[C@@]12C)[C@@]1(C)CC[C@H](O)C(C)(C)[C@@H]1CC3	-	-	nucleotide incorporation	3.8 µM
Cc1cccc2sc(NC(=S)N[C@H](C)c3ccccc3)nc12	-	-	-	8.7 µM